# Vif 1203: effect of single changes on growth against APOBEC3G

Vif of 1203 (a subtype B primary isolate), residues 12-115; positions count from the first residue of the whole protein:
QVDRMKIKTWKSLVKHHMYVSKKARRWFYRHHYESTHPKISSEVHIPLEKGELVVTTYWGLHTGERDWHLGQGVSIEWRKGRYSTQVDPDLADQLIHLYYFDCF

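A pool of vif mutants was passaged twice, 72 h each, on SupT1 cells that express APOBEC3G. Each of three replicates was sequenced after round two and set against the merged round-one pool.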

The score is log2 enrichment against the wild-type codon: higher is better tolerated, lower is depleted.
Each entry names the wild-type residue, its position and the residue put in its place.
This list holds changes to proline only.
The median of three replicates is given, with the replicates in brackets.
Input reads are the counts in the merged round-one pool, before selection.
Replicates agree only moderately (rank correlation about 0.4-0.65); scores from under about 50 input reads tend to be too high.

I18P (input reads 2849) read -1.88 (-1.88 / -1.99 / -0.11).
K22P (input reads 2007) read -1.88 (-2.14 / -1.88 / -0.79).
K26P (input reads 1124) read -1.52 (-1.52 / -0.22 / -1.80).
H27P (input reads 107) read -2.85 (-3.01 / -2.85 / -1.31).
M29P (input reads 342) read 0.03 (0.03 / -1.16 / 2.93).
Y30P (input reads 17) read -2.55 (-2.69 / -2.55 / -2.15).
V31P (input reads 178) read -2.74 (-2.91 / -2.74 / -2.35).
K34P (input reads 19) read -2.28 (1.88 / -2.72 / -2.28).
A35P (input reads 36) read -0.97 (-0.97 / -1.28 / -0.89).
Y40P (input reads 348) read -2.00 (-2.00 / -2.36 / 0.05).
H43P (input reads 590) read -2.68 (-0.62 / -2.68 / -2.71).
Y44P (input reads 42) read 3.90 (0.58 / 4.06 / 3.90).
T47P (input reads 65) read -4.06 (-1.16 / -4.45 / -4.06).
K50P (input reads 1270) read -2.24 (-1.03 / -3.53 / -2.24).
I57P (input reads 135) read -2.30 (-1.76 / -2.68 / -2.30).
E60P (input reads 41) read -0.59 (-1.41 / 4.67 / -0.59).
L64P (input reads 158) read -2.56 (-5.90 / -2.56 / 0.94).
T74P (input reads 224) read -1.54 (-2.92 / -1.54 / 2.14).
R77P (input reads 58) read 3.95 (-1.29 / 4.21 / 3.95).
D78P (input reads 1480) read -2.35 (-2.32 / -2.57 / -2.35).
L81P (input reads 24) read 0.65 (0.65 / 4.89 / -0.39).
Q83P (input reads 176) read -2.42 (-4.47 / -2.42 / -1.61).
V85P (input reads 294) read -2.24 (-2.55 / -1.98 / -2.24).
I87P (input reads 127) read -2.77 (-2.77 / -5.40 / -2.70).
W89P (input reads 164) read -2.07 (-2.07 / -2.31 / -1.69).
D99P (input reads 21) read 2.02 (1.30 / 5.83 / 2.02).
D101P (input reads 149) read -2.41 (-3.86 / -1.93 / -2.41).
A103P (input reads 149) read -2.95 (-5.82 / -2.86 / -2.95).
D104P (input reads 18) read -2.23 (-1.19 / -2.63 / -2.23).
L106P (input reads 773) read -1.95 (0.03 / -2.82 / -1.95).
I107P (input reads 149) read 0.81 (0.81 / -1.26 / 2.27).
Y110P (input reads 190) read -2.45 (-2.45 / -1.91 / -3.99).
F112P (input reads 538) read 0.75 (0.75 / -2.99 / 0.83).
C114P (input reads 203) read -0.08 (0.97 / -0.08 / -1.19).
F115P (input reads 66) read 0.93 (0.93 / 1.16 / -0.37).

The first 4 entries again:

{"change": "I18P", "input reads": "2849", "median score": "-1.88 (-1.88 / -1.99 / -0.11)"}
{"change": "K22P", "input reads": "2007", "median score": "-1.88 (-2.14 / -1.88 / -0.79)"}
{"change": "K26P", "input reads": "1124", "median score": "-1.52 (-1.52 / -0.22 / -1.80)"}
{"change": "H27P", "input reads": "107", "median score": "-2.85 (-3.01 / -2.85 / -1.31)"}

Some changes are missing from the data or left out.
Positive scores are uncertain; some enriched variants did not exclude APOBEC3G in a separate test.

From the data files of Langley et al. 2025, preprint, doi:10.1101/2025.10.20.683452.